Three compounds from PMC5114727, “Biological characterization of chemically diverse compounds targeting the Plasmodium falciparum coenzyme A synthesis pathway” (Parasites & Vectors, 2016) can be followed below.

For data set [1], the system named is T. b. brucei trypomastigote. Description: T. b. brucei resazurin (Alamar Blue) viability assay. It is filed as cell-based, Trypanosoma brucei brucei. Conditions: HEK293 cytotoxicity from ref 22. As for the experimental part: Compound activity against two members of another clinically important group of parasites, the kinetoplastids T. cruzi and T. b. brucei was determined. The sensitive high content imaging assay used to determine compound activity against T. cruzi assesses the intracellular amastigote life form of the parasite in the 3T3 host cell. […] The T. b. brucei assay employs the REDOX indicator Alamar Blue to assess viability, which was developed into a 384-well assay format.
Compound activity against T. b. brucei was assessed in a resazurin-based viability assay in concentration-response assays, without technical repeats, in two experimental replicates at a highest concentration of 40 μM, as previously described.
Background: The colour change of resazurin is a common sign of viable cells or microbes.

Data set [2] has as its system P. falciparum developmental stages. Description: Activity across all P. falciparum life-cycle stages tested (asexual, early and late gametocytes). Type of data set: cell-based, Plasmodium falciparum. As to the method: Induction of P. falciparum gametocyte differentiation and gametocyte culturing were performed as previously described. Compound activity against early stage gametocytes (covering the development from stage I to IIb/III) and late stage gametocytes (stage IV to V) of the recombinant P. falciparum line NF54^Pfs16 was assessed in concentration-response assays, in two experimental replicates consisting of two technical repeats each, at a highest concentration of 40 μM, as described earlier.

`CCc1ccc(Nc2cc(C)c3ccc(O)cc3n2)cc1.Cl` [MMV000570]: the “SI over HEK293 (T. b. brucei trypomastigote)” value in data set [1] is given as 6.8.
Take `Cc1csc(Sc2ncnc3sccc23)n1` [Amb180780]: the “overall SI over human embryonic kidney cells (HEK293)” value in data set [2] is on record as above 482.
Turning to `CC1=CC(=O)C(C(C)C)=C/C1=N/OS(=O)(=O)c1ccccc1` [STK 740987], the “overall SI over human embryonic kidney cells (HEK293)” value in data set [2] is on record as “above 94”.
